From US20210386505A1, “BACTERIAL BIOFILM STAINING DEVICE AND METHODS OF USE” (University of Utah Research Foundation, priority 2020, published 2021) come the findings set out here.

The test system of this data set is healthy sheep tissues. Kind of data set: MB staining of healthy sheep tissues in vitro (photography, red channel analysis).

Turning to `CN(C)c1ccc2nc3ccc(=[N+](C)C)cc-3sc2c1` [MB, methylene blue], the staining of tissue entry is listed as “significant staining” (articular cartilage); “did not display appreciable staining” (bone); “did not display appreciable staining” (fat); “significant staining” (meniscus); “did not display appreciable staining” (muscle); “did not display appreciable staining” (nerve). Further, the staining of tissue result (tendon) is “did not display appreciable staining”.
